Experimental data from patent publication US6346529B1, “Antiviral therapy using thiazine dyes” (Oklahoma Medical Research Foundation, priority 1988, dated 2002).
Read-outs that look alike come from different tables or passages of the source.

Legend:
[1] = PBM cell proliferation (cytotoxicity) assay; type: cell-based; settings: human, uninfected PHA-stimulated human PBM cells, read-out: Cytotoxicity: IC50 PBMC
Description: (§1) PBM and CEM Cells Proliferation Assay: The drugs were evaluated for their potential toxic effects on uninfected PHA-stimulated human PBM cells and also in CEM cells. The cells were cultured with and without drug for 6 days at which time aliquots were counted for cell viability as described above.

Toxicity in Vero cells = type: cell-based; settings: African green monkey, day three, read-out: Cytotoxicity: IC50 Vero
Description: Toxicity in Vero (African Green Monkey) Cells: […] The cells dislodged from the flask were generally in clumps and were dispersed by repeated forceful pipetting of the suspension against the surface of the flask. To 1 ml of the well-dispersed cell suspension, 0.2 ml of trypan blue solution was added, and the number of cells were counted using a hemacytomer. Each day for the next 3 days, two of the remaining flasks were harvested in the manner just described for determination of cell number. Only data on day three are presented. This method has previously been described by Schinazi, et al., “Effect of Combination of Acyclovir, and Vidarabine or its 5′-monophosphate on Herpes Simplex Viruses in Cell Culture and in Mice,” Antimicrob. Agents Chemother. 22, 499-507 (1982)).

[2] = CEM cell proliferation (cytotoxicity) assay; type: cell-based; settings: human, CEM cells
Description: as §1

[3] = cited from earlier work

## CN(C)c1ccc2nc3ccc(N(C)C)cc3[s+]c2c1.[Cl-] [MB, 3,7-Bis(dimethylamino)phenothiazin-5-ium chloride]
[1]; dark
  IC50 at 6 days: > 1 µM
[1]; light
  IC50 at 6 days: 6.1 µM
Toxicity in Vero cells; dark
  IC50 at 3 days: 0.66 µM
Toxicity in Vero cells; light
  IC50 at 3 days: 0.14 µM
[2]; dark
  IC50 at 6 days: 2.22 µM
[2]; light
  IC50 at 6 days: 0.12 µM
[3]; adult humans, one week to 19 months, 100 mg b.i.d. or t.i.d. orally or 100 mg i.v.
  side effects: minimal side effects
[3]; recommended doses by mouth or i.v.
  side effects: blue urine, occasional nausea, anemia and fever
